Results reported in paper PMC5789848.
Construct, isoform or probe ends are uncertain for at least one entry. At least one verdict rests on a figure or table, not on a statement of the authors.

Target: Tax WT (HTLV-1) (UniProt P03409)
Experiment: pull-down
Conditions: nonspecific RNA binding mentioned, data not shown; pull-down: BLI-like buffer, 30 C then 4 C, 200 mM NaCl wash; recombinant protein; residues 1-353; protein details: N-terminal GST; label: 3' biotin (BtnTg)

CGUCCAUCUGGUCAUCUAGUGAUAUCAUCG [30-mer ssRNA 3'-biotin (pull-down)]
binding result: binds
